Assay results taken from publication PMC3465485 (Antiviral research, 2012).

Columns and labels:
[1] = system: influenza A/California/07/2009 (H1N1) virus
[2] = target: A/California/07/2009 neuraminidase (Influenza A virus (A/California/07/2009(H1N1)), UniProt C3W6G3); type: biochemical

## CCC(CC)O[C@@H]1C=C(C(=O)O)C[C@H](N)[C@H]1NC(C)=O [Oseltamivir Carboxylate, Oseltamivir carboxylate]
[1]
  SI (CC50/EC50): >1667
[2]
  IC50: 10.5 ± 1.3 nM
